Test results taken from patent US20220322803A1 (KONKUK UNIVERSITY INDUSTRIAL COOPERATION CORP, priority 2019, published 2022).

Assay: Cysteic acid generation by ATR-FTIR analysis of perm hair
Settings: perm hair washed once

For OO [hydrogen peroxide], which “Peak height of 1040 cm^-1 (cysteic acid), normalized to amide III 1242 cm^-1” value is on record?
The value was 0.8867.
